In patent publication US20240386992A1:

Biological target: wt
Assay: ELISA

Substance	EC50
C144	0.44 mg/L
S2H13	0.56 mg/L
P2B-2F6	0.3 mg/L
CC12.1	0.24 mg/L
EY6A	0.52 mg/L
